Experimental data as given in patent US20190352376A1 (NATIONAL RESEARCH COUNCIL OF CANADA, published 2019).

Legend:
[1] = biological target: hemagglutinin of H3N1 A/Victoria/361/2011 (influenza virus H3N1 A/Victoria/361/2011); assay: dot blot, 4M urea; VLP (plant/MedG), dot 22
[2] = biological target: hemagglutinin of H1N1 A/California/06/2008 (influenza virus H1N1 …); assay: dot blot, 4M urea; VLP (plant/MedG), dot 24

Binder | signal intensity [1] | signal intensity [2]
F211-11H12 (antibody, V domains shown) VH: DVQLQESGPGLVKPSQSLSLTCSVTGYSITSDYYWNWIRQFPGNKLEWMAYIGYDGTKNYNPSLKNRISITRDTSKNQFFLKLNSVTTDDTATYYCTRDRANWDDYFDYWGQGTTLTVSS VL: DIVMSQSPSSLAVSVGEKVTMSCKSSQSLLNSRNQKNHLAWYQQKPGQSPKLLIYWASTRESGVPDRFTGDGSGTDFTLTISSVKAEDLAVYYCQQYYTYRTFGGGTKLEIK | 3700 arbitrary fluorescent units | 54100 arbitrary fluorescent units
F211-9D1 (antibody, V domains shown) VH: DVQLQESGPGLVKPSQSLSLTCSVTGYSITSDYYWNWIRQFPGNKLEWMAYIGYDGSKNYNPSLKNRISITRDTSKNQFFLKLNSVTTDDTATYYCTRDRANWDDYFDYWGQGTTLTVSS VL: DIVMSQSPSSLAVSVGEKVTMSCKSSQSLLNSRNQKNHLAWYQQKPGQSPKLLIYWASTRESGVPDRFSGDGSGTDFTLTISSVKAEDLAVYYCQQYYTYRTFGGGTKLEIK | 4290 arbitrary fluorescent units | 55400 arbitrary fluorescent units
F211-10A9 (antibody, V domains shown) VH: QIQLQQSGPELVKPGAPVKISCKASGYTFTDYYIHWVNQRPGQGLEWIGYIYPGNGHTVYNQKFKVRATLTADNPSSTAYLQLNSLTSEDSGVYFCAYDLFNYWGQGTLVTVSA VL: DIVMTQSPSSLAMSVGQKVTMSCKSSQSLLNSDTQKNFLAWYQQKPGQSPKILVYFASTKESGVPDRFIGSGSGTDFTLTITSVQAEDLADYFCQQYYSIPLTFGAGTKLELK | 34000 arbitrary fluorescent units | 55100 arbitrary fluorescent units
